According to patent US20230365956A1 (SYSTIMMUNE, published 2023):

What was measured:
[1] = target: T1, SARS-CoV-1 RBD domain (ACROBiosystems) (SARS-CoV-1); test: BLI, affinity format: SI-F019 on AHC tip, viral protein in solution
T1 construct: domain: RBD domain; also called CoV RBD

[2] = target: T1, SARS-CoV-1 RBD domain (ACROBiosystems); test: BLI, avidity format: biotinylated viral protein on SA tip, SI-F019 in solution

B1: SI-F019, fusion protein of huACE2 ([…]) and IgG1 Fc null (purified from SI-69R2) (Fc fusion)
chain: not shown
[1]
  Kd: 14 nM
  koff: 0.00597 s⁻¹
[2]
  Kd: 0.33 nM
  koff: 0.000171 s⁻¹
